Measured values from several laboratories, pooled; numbers as filed in NIAID ChemDB.

Common to all: whole-cell or culture tests; agent: HIV-1; strain or isolate: RF; cells: MT-2; read by: hybridisation; read-out: EC50

Rows are shuffled and stem from different studies. ECn: concentration that inhibits the pathogen or its effect by n%.

compound,value
N#CN=C1N(CC2CCCCC2)[C@H](Cc2ccccc2)[C@H](O)[C@@H](O)[C@@H](Cc2ccccc2)N1CC1CCCCC1,<1.1 µM
Nc1n[nH]c2ccc(CN3C(=O)N(Cc4ccc5[nH]nc(N)c5c4)[C@H](Cc4ccccc4)[C@H](O)[C@@H](O)[C@H]3Cc3ccccc3)cc12,<2.76 µM
CCCN1C(=O)N(CCC)[C@H](Cc2ccccc2)[C@H](O)[C@@H](O)[C@H]1Cc1ccccc1,<54 µM
N#CN=C1N(CC2CC2)[C@H](Cc2ccccc2)[C@H](O)[C@@H](O)[C@@H](Cc2ccccc2)N1CC1CC1,<5 µM
CS(=O)(=O)c1ccc(C[C@@H]2[C@H](O)[C@@H](O)[C@@H](Cc3ccc(S(C)(=O)=O)cc3)N(Cc3ccccc3)C(=O)N2Cc2ccccc2)cc1,<0.47 µM
CNCCOc1ccc(C[C@@H]2[C@H](O)[C@@H](O)[C@@H](Cc3ccc(OCCNC)cc3)N(Cc3ccccc3)C(=O)N2Cc2ccccc2)cc1,<0.8 µM
O=C1N(Cc2ccc3[nH]nc(N4CCCC4)c3c2)[C@H](Cc2ccccc2)[C@H](O)[C@@H](O)[C@@H](Cc2ccccc2)N1Cc1ccc2[nH]nc(N3CCCC3)c2c1,<0.12 µM
O=C1N(Cc2cccc(Br)c2)[C@H](Cc2ccccc2)[C@H](O)[C@@H](O)[C@@H](Cc2ccccc2)N1Cc1cccc(Br)c1,<1.2 µM
O=C1N(Cc2ccccc2)[C@H](Cc2ccccc2)[C@H](O)[C@@H](O)[C@@H](Cc2ccccc2)N1Cc1ccccc1,<0.79 µM
CCCCN1C(=NC#N)N(CCCC)[C@H](Cc2ccccc2)[C@H](O)[C@@H](O)[C@H]1Cc1ccccc1,<2.6 µM
O=C1N(Cc2ccccc2)[C@H](Cc2ccccc2O)[C@H](O)[C@@H](O)[C@@H](Cc2ccccc2O)N1Cc1ccccc1,<6.5 µM
O=C1N(Cc2cccc(-c3ccn[nH]3)c2)[C@H](Cc2ccc(O)cc2)[C@H](O)[C@@H](O)[C@@H](Cc2ccc(O)cc2)N1Cc1cccc(-c2ccn[nH]2)c1,<1.345 µM
CCCCN1C(=O)N(Cc2ccc3ccccc3c2)[C@H](Cc2ccccc2)[C@H](O)[C@@H](O)[C@H]1Cc1ccccc1,<0.75 µM
CN(C)c1ccc(C[C@@H]2[C@H](O)[C@@H](O)[C@@H](Cc3ccc(N(C)C)cc3)N(Cc3ccccc3)C(=O)N2Cc2ccccc2)cc1,<2.7 µM
O=C1N(Cc2ccc(Br)cc2)[C@H](Cc2ccccc2)[C@H](O)[C@@H](O)[C@@H](Cc2ccccc2)N1Cc1ccc(Br)cc1,<8.1 µM
Nc1cccc(CN2C(=O)N(Cc3cccc(N)c3)[C@H](Cc3ccccc3)[C@H](O)[C@@H](O)[C@H]2Cc2ccccc2)c1,<0.13 µM
O=C1N(Cc2cccc(-c3ccn[nH]3)c2)[C@H](Cc2ccc(OCc3ccncc3)cc2)[C@H](O)[C@@H](O)[C@@H](Cc2ccc(OCc3ccncc3)cc2)N1Cc1cccc(-c2ccn[nH]2)c1,<0.018 µM
O=C1N(Cc2ccc(O)cc2)[C@H](Cc2ccccc2)[C@H](O)[C@@H](O)[C@@H](Cc2ccccc2)N1Cc1ccc(O)cc1,<0.032 µM
O=C1N(Cc2ccccc2)[C@H](Cc2ccncc2)[C@H](O)[C@@H](O)[C@@H](Cc2ccncc2)N1Cc1ccccc1,<5.7 µM
O=C1N(Cc2ccc(F)cc2)[C@H](Cc2ccccc2)[C@H](O)[C@@H](O)[C@@H](Cc2ccccc2)N1Cc1ccc2ccccc2c1,<1.1 µM
O=C1N(Cc2ccccc2)[C@H](Cc2ccc(OCCO)cc2)[C@H](O)[C@@H](O)[C@@H](Cc2ccc(OCCO)cc2)N1Cc1ccccc1,<0.078 µM
Nc1cccc(CN2C(=O)N(Cc3cccc(N)c3)[C@H](Cc3ccccc3)[C@H](O)[C@@H](O)[C@H]2Cc2ccccc2)c1,<0.13 µM
O=C1N(Cc2cccc(-c3ccn[nH]3)c2)[C@H](Cc2ccc(OCCN3CCOCC3)cc2)[C@H](O)[C@@H](O)[C@@H](Cc2ccc(OCCN3CCOCC3)cc2)N1Cc1cccc(-c2ccn[nH]2)c1,<1.033 µM
Cc1cccc(CN2C(=O)N(Cc3cccc(C)c3)[C@H](Cc3ccccc3)[C@H](O)[C@@H](O)[C@H]2Cc2ccccc2)c1,<2.4 µM
CCNc1n[nH]c2ccc(CN3C(=O)N(Cc4ccc5[nH]nc(NCC)c5c4)[C@H](Cc4ccccc4)[C@H](O)[C@@H](O)[C@H]3Cc3ccccc3)cc12,<0.065 µM